Test results reported in patent US10208000B2, “Eis inhibitors” (priority 2015, dated 2019).

Key:
[1] = tested on: K204 Mtb; details: for K204 MICKAN: KAN MIC in presence of compound at concentration tested (100x IC50 or 20 μM), KAN line = absence of compound
[2] = tested on: H37Rv Mtb; test: Mycobacterial MIC determination by alamar blue assay, KAN with sulfonyl isothiazoles; format: cell-based, Mycobacterium tuberculosis; details: KAN MIC in presence of compound at concentration tested (100x IC50 or 20 μM); KAN line = absence of compound

Row | SMILES | overcoming resistance to KAN in Mtb K204 (in words) [1] | K204 MICKAN [1] [µg/mL] | H37Rv MICKAN [2] [µg/mL]
1 | CC1=C(c2ccc(C)c(C)c2)S(=O)(=O)N=C1NCC(=O)NCc1ccc(C)o1 | did not overcome resistance to KAN | 10 | 1.25
2 | CCCN1CCN(C2=NS(=O)(=O)C(c3ccc(C)c(C)c3)=C2C)CC1 |  | 5 | 0.625
